According to publication PMC6203815:

Target: 85RF45.1 Fab
Experiment: BLI
Conditions: Fab concentrations of 250, 125, 62.5, and 31.3 nM

Row | Substance | Kd [nM]
1 | Pfs48/45 6C domain (NF54) I349V | 1.7
2 | Pfs48/45 6C domain (NF54) Q355L | 17.1
